Earlier results on 2 molecules are cited in paper PMC11091888, “Evaluation of Fusobacterium nucleatum Enoyl-ACP Reductase (FabK) as a Narrow-Spectrum Drug Target” (ACS Infectious Diseases, 2024).

For this data set, the system named is CdFabK. Set-up: method as in PMID 37224699. Conditions: previously reported; cited from earlier work.

Take `CS(=O)(=O)c1ccc2nc(NC(=O)NCc3nc(-c4ccc(Br)cc4)c[nH]3)sc2c1` [Compound 681, 1-((4-(4-bromophenyl)-1H-imidazole-2-yl)methyl)-3-(6-(methylsulfonyl)benzo[d]thiazol-2-yl)urea]: the “Hill slope (CdFabK inhibition)” value is recorded as 0.97.

In the case of `O=C(NCc1nc(-c2ccc(Br)cc2)c[nH]1)Nc1nc2ccccc2s1` [Compound 701], the “Hill slope (CdFabK inhibition)” value is listed as 0.94.
